{
  "source": "paper PMC8464830",
  "about": "(2021)",
  "target": "human Calmodulin-1 (human, UniProt P0DP23 1-149)",
  "test": "SPR",
  "data": [
    {"binder": "HIV-1 MA protein from clade B (NL4-3), full-length (natural protein) MGARASVLSGGELDRWEKIRLRPGGKKKYKLKHIVWASRELERFAVNPGLLETSEGCRQILGQLQPALQTGSEELRSLHNTVAVLYCVHQRIEVKDTKEALEKIEEEQNKSKKTAQQAAADTGNSNKVSQNY", "values": [
      {"measurement": "koff", "result": 0.301, "unit": "s⁻¹"}
    ]}
  ]
}
